Assay results: patent publication US20240391889A1, “ANTIMICROBIAL COMPOUNDS AND THE METHODS OF USE” (priority 2021, published 2024)

System: HepG2 liver cells
Format: cell-based
Procedure: The mammalian cell lines that were tested (HepG2, 3T3, and HaCat) were incubated with RMG9-11 for 72 hours and cell viability was determined via mitochondrial activity using an MTT reduction assay where viable cells reduce MTT to formazan. Toxicity is reported as the concentration of the peptoid that results in a 50% reduction in viable cells, termed toxicity dose 50% or TD50. […] SR is defined as the TD50 divided by MIC and provides a measure of the therapeutic window for a compound. Typically for most lead compounds that would continue through development and optimization, a SR of 10 is preferred while an SR of 100 is more desirable for a compound moving into preclinical animal model evaluation.
Hepatocellular carcinoma (HepG2), mouse fibroblast (3T3), and human keratinocyte (HaCat) cells were cultured in Dulbeco modified eagle media (DMEM) containing 10% fetal bovine serum (FBS) and 1% penicillin, streptomycin, and glutamine (PSG) at 37° C. and 5% CO2. Cells were collected and adjusted to […] to 4×10^5 cells/mL in phenol-red free DMEM and plated (100 μL) 96 well plates. 2-fold serial dilutions of 10× peptoid (11.1 μL) were added to each well in triplicate. Water (vehicle) was used as a negative control. Plates were incubated at 37° C. in 5% CO2 for 72 hours. […] Plates were read on a SPECTRAMAX M5 plate reader (Abs. 570 nm). […]

Structure (SMILES): CCCCCCCCCCCCCNCC(=O)N(CCC)CC(=O)N(CC(=O)N(CCCCN)CC(=O)N(CC(=O)N(CC(=O)N(CCCN)CC(N)=O)Cc1ccccc1)Cc1ccco1)CC1CCCCC1 [Compound 911-M10] (H-[N(tridecyl)Gly][NPrGly][NCyclohexylmethylGly][Nlys][NFurfurylGly][Nphe][Gly(N(CH2)3NH2)]-NH2; N-terminus assumed)
- C. neoformans SR (HepG2 TD50/MIC) (HepG2 TD50 divided by C. neoformans MIC): 63-125
- C. albicans SR (HepG2 TD50/MIC) (HepG2 TD50 divided by MIC against planktonic C. albicans): 16

Square brackets hold non-standard residues; d marks the D form. Peptide text beside a SMILES is read from it. NCyclohexylmethylGly = O=C(O)CNCC1CCCCC1; N(tridecyl)Gly = CCCCCCCCCCCCCNCC(=O)O; NFurfurylGly = O=C(O)CNCc1ccco1; Gly(N(CH2)3NH2) = NCCCNCC(=O)O; Nphe = O=C(O)CNCc1ccccc1; NPrGly = CCCNCC(=O)O; Nlys = NCCCCNCC(=O)O
